From patent US20220195015A1, “Neutralizing anti- sars-cov-2 antibodies” (published 2022) come the findings set out here.

A word on the IC50: it is the point on the concentration scale where inhibition reaches its midpoint. A higher IC50 goes with lower potency. A word on the IC90: it is the concentration needed for an effect of 90%. Read a low IC90 as an effect from little substance.

B1: C132 (antibody, V domains shown)
VH: QVQLQESGPGLVKPSGTLSLTCAVSGGSISSNNWWSCVRQPPGKGLEWIGEIYHSGSTNYNPSLKSRVTISVDKSKNQFSLKLSSVTAADTAVYYCARGGDTAMGPEYFDYWGQGTLVTVSS
VL: QSALTQPASVSGSPGQSITISCTGTSSDVGGYNYVSWYQQHPGKAPKLMIYDVSNRPSGVSNRFSGSKSGNTASLTISGLQAEDEADYYCSSYTSSSTLLFGGGTKLTVL
B2: C704 (antibody, V domains shown)
VH: VQLVESGGGVVQPGRSLRLSCAASGFTFSRYGMHWVRQAPGKGLEWVAVSSYDGSNEYYANSVKGRFTISRDNSKNTLYLQMNSLRAEDTAVYYCAKTGASYCGGDCPFHFDYWGQGTLVTVSS
VL: IRMTQSPSSLSASVGDRVTITCQASQDINNYLNWYQQKPGKAPKLLIYDASDLETGVPSRFSGGGSGTDFTFTISSLQPEDIATYYCQHYNNLPITFGQGTRLEIK
B3: C047 (antibody, V domains shown)
VH: QVQLQESGPGLVKPSETLSLTCTVSGGSISSTTYYWDWIRQSPGKGLEWIGSIFYTGITYYSPSLKSRVTISVDTSKNQFSLRLNSMTAADTAVYYCARRLRQLWFGPWFDPWGQGTLVTVSS
VL: QSALTQPPSASGSPGQSVTISCTGTRSDVGDYNYVSWYQQHPDKAPKLIIYEVTKRPSGVPDRFSGSKSGNTASLTVSGLQAEDEADYYCSSYAGSNNVMFGGGTKLTVL
B4: C710 (antibody, V domains shown)
VH: B3 VH with T23I, S30N, S67T
VL: B3 VL with Y51F, N97S
B5: C520 (antibody, V domains shown)
VH: QVQLQQWGAGLLKPSETLSLTCAVFGGSFSGYYWGWIRQPPGKGLEWIAEINHSENSHYNPSLKSRVTISVDTFKNQFSLNLSSVTAADTALYYCVRRPRRYCSGDTCRGAFDIWGQGTMVTVSS
VL: DIQMTQSPSSLSASVGDRVTITCRASQDISNFLAWYQQKPGKVPSLLIYAASILQPGVPSRFSGSGSGTDFTLTITSLQPEDVATYYCQKYKIDPFTFGPGTKVDIK
B6: C708 (antibody, V domains shown)
VH: EVQLVESGGGLVQPGGSLRLSCAASGFSFSTYWMSWVRQAPGKGLEWVADIKQDGSEKYFVDSVKGRFTISRDNAKNSLYLHLNSLRAEDTAVYYCAREMAGSGNYYWFGYGMDVWGQGTTVTVSS
VL: IRMTQSPSSVSASVGDRVTITCRASQGISSWLAWYQQKPGKAPKLLIYAASSLQSGVPSRFSGSESGTDFTLTISSLQPEDFATYYCQQANSFPLTFGGGTKVEIK
B7: C032 (antibody, V domains shown)
VH: EVQLVQSGAEVKKPGESLKISCKGSGYSFTSYWIGWVRQMPGKGLEWMGIIYPGDSDTRYSPSFQGQVTISADKSISTAYLQWSSLKASDTAMYYCARGVAVDWYFDLWGRGTLVTVSS
VL: QSVLTQPPSVSGAPGQRVTISCTGSSSNIGAGYDVHWYQQLPGTAPKLLIYGNSNRPSGVPDRFSGSKSGTSASLAITGLQAEDEADYYCQSYDSSLSALYVFGTGTKVTVL
B8: C703 (antibody, V domains shown)
VH: EVQLLESGGGLVQPGGSLRLSCAGSGFTFSHYALSWVRQAPGKGLEWVSCISGTGGNSHYADSVKGRFTSSRDNSKNILYLQMNSLRAEDTAVYFCAKGGDFWSGYLIPFDSWGQGTLVTVSS
VL: SYELTQSPSVSVAPGKTARITCGGDSIGSKNVHWYQQKPGQAPVLVMYYDNDRPSGIPERFSGYNSGNTATLSISRVEAGDEADYYCLVWDGSGDPWVFGGGTKLTVL
B9: C096 (antibody, V domains shown)
VH: EVQLVESGGGLVKPGGSLRLSCVASGFTFRNAWMNWVRQAPGKGLEWVGRIKANSDGGTIDYAEPVQGRFTISREDSRNSLYLQMNSLKTEDTAVYYCTTGPQYDDFGHSYIVDSWGPGTLVTVSS
VL: DIVMTQSPLSLPVTLGEPASISCRSSQSLLHSNGFHFLEWYLQKPGQSPQLLIYVGSNRASGVPDRFSGSGSGTDFTLKISRVEAEDVGVYYCMQTLQTPLTFGGGTKVEIK
B10: C706 (antibody, V domains shown)
VH: EVQLVESGGGLVKPGGSLRLSCAASGFTFSNVWMSWVRQAPGKGLEWVGRIKSKIDGGTTEYAAPVKGRFIISRDDSKNTLSLQMNSLKTEDTAVYYCTTDHGREPPVHWGQGTLVTVSS
VL: EIVLTQSPGTLSLSPGERASLSCRARQSVYSNYLAWYQHKSGQAPRLLFYGASSRATDIPDRFSASGSGTDFTLTISRLEPEDFAVYYCLQYGPSPTFGPGTRLEIK
B11: C522 (antibody, V domains shown)
VH: EVQLVESGGGLIQPGGSLRLSCAASEFIVSRNYMSWVRQAPGKGLEWVSVIYSGGSTFYADSVKGRFTISRDESKNTLYLQMNSLRAEDTAIYYCARDRGGGILDYWGQGTLVTVS
VL: DIQMTQSPSSLSASVGDRVTITCQASQDINIFLNWYQQKPGKAPKLLIYDASSLETGVPSRFSGSGSGTDFTFTISSLQPEDFATYYCQQYGNLPKYTFGQGTKLEIK
B12: C045 (antibody, V domains shown)
VH: EVQLVESGGGLVQPGGSLRLSCAASGFTFSTYSMNWVRQAPGKGLEWVSYISSSSSTIHYADSVKGRFTISRDNAKNSLYLQMNSLRDEDTAVYYCAREAHDGALTDYGDYLNWFDPWGQGTLVTVSS
VL: SYELTQPPSVSVAPGKTARITCGGTNIGSKNVHWYQQKPGQAPVLVIYYDNDRPSGIPERFSGSNSGNTATLTISRVEAGDEADYYCQVWDTTSDHFYWVFGGGTKLTVL
B13: C164 (antibody, V domains shown)
VH: EVQLVESGGGLVQPGGSLRLSCAASGFSVSTKYMTWVRQAPGKGLEWVSVLYSGGSDYYADSVKGRFTISRDNSKNALYLQMNSLRVEDTGVYYCARDSSEVRDHPGHPGRSVGAFDIWGQGTMVTVSS
VL: QSALTQPASVSGSPGQSITISCTGTSNDVGSYTLVSWYQQYPGKAPKLLIFEVTKRSSGISNRFSGSKSGNTASLTISGLQGEDEADYYCCSYAGASTFVFGGGTKLTVL
B14: C143 (antibody, V domains shown)
VH: B13 VH
VL: B13 VL with V53G
B15: C707 (antibody, V domains shown)
VH: EVQLVESGGGLVKPGGSLRLSCAASGFTFSSYSMNWVRQAPGKGLAWVSSISSSNNIIYYADSVKGRFTISRDDAKDSLYLHMKSLRADDTAVYFCARVPSWAPYQLLPGPFDYWGQGILVTVSS
VL: IRMTQSPSSLSASVGDRVTITCQASQAIASYLSWYQHKPGRAPKLLIYDASNLEIGVPSRFSGSGSGTDFTFTISSLQSEDNATYYCQQYESLPGTFGGGTKVEIK
B16: C709 (antibody, V domains shown)
VH: QVQLVQSGAEVRKPGASVKVSCMASGYTFNTYDINWVRQGTGQGLEWMGWMNPNSGNTGHAQKFQGRVAMTVNTSMNTAYMELSSLRSEDTAVYYCARGADMLNVAVGADFDYWGQGTLVTVSS
VL: QSALTQPPSASGSPGQSVTISCTGTSSDVGGYNFVSWFQQHPGKAPKLMIYEVSKRPSGVPDRFSGSKSANTASLTVSGLQAEDEADYFCSSYAGSNNWVFGGGTKLTVL
B17: C520 (antibody, V domains shown)
VH: B5 VH
VL: B5 VL
B18: C096 (antibody, V domains shown)
VH: B9 VH
VL: B9 VL
B19: C522 (antibody, V domains shown)
VH: B11 VH
VL: B11 VL
B20: C035 (antibody, V domains shown)
VH: EVQLVESGGGLVQPGGSLRLSCAASGFIFSSYWMTWVRQAPGKGLEWVASIKYNGNERNYVDSVKGRFTISRDNARNSLFLQLNNLGAEDTAVYYCARQPESTIWYYFDYWGQGTLVTVSS
VL: SYELTQPPSVSVSPGQTARVTCSGHALPDQYTYWYQQRPGRAPVLVIYVNNQRPSGIPDRFSATTSGTTVTLTISGVQAEDEADYYCQSADSSGSYVVFGGGTKLTVL

Changes are numbered by the printed parent chain.

For one assay, the target named is SARS-CoV-2 spike (S) protein on pseudotyped HIV-1 reporter virus (SARS-CoV-2, UniProt P0DTC2 14-1254). The experiment in a line: cell-based or functional assay.
For B1, the “IC50” value was found to be 1.02 µg/mL and the 90% effect concentration (IC90) was > 10 µg/mL.

For B2, the “IC50 and IC90 [ng/ml] (one cell)” value is > 10000 ng/mL. Same read-out and setting: the result for B3 reads > 10000 ng/mL. Take B4: the “IC50 and IC90 [ng/ml] (one cell)” value was > 10000 ng/mL.

Consider B5, for which the “IC50 and IC90 [ng/ml] (one cell)” value was > 10000 ng/mL. Take B6: 0.489 µg/mL corresponded to half-maximal inhibition (IC50) and the “IC90” value came out at 8.86 µg/mL.

Take B7: the 50% inhibitory concentration (IC50) turned out to be 0.0757 µg/mL and it took 1.4 µg/mL to reach the 90% level (IC90). The matching figures for B8: 0.681 µg/mL and > 10 µg/mL. Turning to B9, 0.0802 µg/mL corresponded to half-maximal inhibition (IC50) and the “IC90” value amounted to 0.349 µg/mL.

Take B10: the “IC50” value is 2.03 µg/mL and the “IC90” value was > 10 µg/mL. As to B11, half-maximal inhibition (IC50) required 0.0206 µg/mL and the “IC90” value was found to be 0.074 µg/mL. As for B12, the “IC50 and IC90 [ng/ml] (one cell)” value is > 10000 ng/mL. For the molecule B13, inhibition was half-maximal at 0.0593 µg/mL (IC50) and the 90% effect level (IC90) was put at 0.811 µg/mL. The matching figures for B14: 0.336 µg/mL and 3 µg/mL. Turning to B15, the “IC50 and IC90 [ng/ml] (one cell)” value is > 10000 ng/mL.

As to B16, the “IC50” value stood at 0.407 µg/mL and the “IC90” value is > 10 µg/mL.

A further assay deals with SARS-CoV-2 spike protein on HIV-1 pseudotyped particles (SARS-CoV-2, UniProt P0DTC2 14-1254). The experiment in a line: cell-based or functional assay.
Turning to B17, the “Neutralization IC50” value is > 10 µg/mL and the “Neutralization IC90” value was > 10 µg/mL.

For B18, the “Neutralization IC50” value is 0.0802 µg/mL and the “Neutralization IC90” value was 0.349 µg/mL. The corresponding values for B19 are 0.0206 µg/mL and 0.074 µg/mL.

Take B20: the “Neutralization IC50” value was > 10 µg/mL and the “Neutralization IC90” value is > 10 µg/mL.
